Compound potency records, mixed from different reports. Data source: NIAID ChemDB in PubChem.

Shared fields: target-level tests

Neighbouring rows are from separate reports. Fold resistance has wild type as its base. Inhibition is in % at the dose shown (toxicity tests: loss of growth or viability). ICn is the concentration giving n% inhibition. Blank or dashed fields: not listed here.

compound	species	changes	measure	protein	strain or isolate	method	tested at	result
O=C(O[C@@H]1Cc2c(O)cc(O)cc2O[C@@H]1c1ccc(O)c(O)c1)c1cc(O)c(O)c(O)c1	HIV-1	-	inhibition	gp120	IIIB	ELISA	2 µg/mL	85%
CC[C@H]1C=CCC[C@@]2(C[C@@H]3CC[C@@H]4[C@H](C(=O)OCCCCCCCCCCC(=O)N(CCC[NH3+])C[C@@H](O)CC[NH3+])[C@]5(CCC[C@@H](C)O5)NC(=[N+]34)N2)O1	HIV-1	-	inhibition	Nef	NL4-3	ELISA	5 µM	93.6%
CC(C)[C@H](NC(=O)c1ccc2ccccc2n1)C(=O)N[C@H](CCN1CC[C@@H](SCc2ccncc2)C[C@H]1C(=O)NC(C)(C)C)Cc1ccccc1	HIV-2	-	IC50	Protease	-	-	-	0.01 µM
NC[C@@H]1O[C@H](O[C@H]2[C@@H](O)[C@H](O[C@@H]3[C@@H](O)[C@H](N)C[C@H](N)[C@H]3O[C@H]3O[C@H](CO)[C@@H](O)C[C@H]3N)O[C@@H]2CO)[C@H](N)[C@@H](O)[C@@H]1O[C@H]1O[C@H](CO)[C@@H](O)[C@H](O)[C@@H]1O	HIV-1	-	IC50	Rev:RRE	-	gel	-	<10 µM
Cc1cn([C@@H]2O[C@H](CO[Si](C)(C)C(C)(C)C)C3(OS(=O)(=O)C=C3N)[C@H]2O[Si](C)(C)C(C)(C)C)c(=O)n(C)c1=O	HIV	RT-N137A	fold resistance	Reverse transcriptase	-	nucleotide incorporation / radiometric	-	0.56
O=C1c2c(O)cc(O)cc2O[C@H](c2ccc(O)cc2)[C@H]1O	HIV-1	-	inhibition	gp120	-	ELISA	60 µg/mL	>80%
CC(=O)O[C@H]1c2c(c3c(c4c(-c5ccccc5)cc(=O)oc24)OC(C)(C)C=C3)O[C@H](C)[C@H]1C	HIV-2	RT-Y181I	IC50	Reverse transcriptase	-	scintillation proximity / radiometric	-	0.5 µM
CCN1c2ncccc2C=Cc2cccnc21	HIV-1	RT-Y181C	inhibition	Reverse transcriptase	-	nucleotide incorporation	1 µM	41%
Cc1cc(SC2=C(O)C[C@@](CCc3ccc(O)cc3)(C(C)C)OC2=O)c(C(C)(C)C)cc1N	HIV	PR-I84V	fold resistance	Protease	-	-	-	49
CN[C@@H]1[C@@H](O)[C@@H](O[C@@H]2[C@@H](O)[C@H](O[C@H]3O[C@H]([C@@H](C)N)CC[C@H]3N)[C@@H](N)C[C@H]2N)OC[C@]1(C)O	HIV-1	-	inhibition	Rev:RRE	-	gel	100 µM	0%
O=C1C[C@@H](c2ccc(O)cc2)Oc2cc(O[C@@H]3C[C@@H](O)[C@H](O)[C@@H](CO)O3)cc(O)c21	HIV-1	-	inhibition	gp120	-	ELISA	80 µg/mL	77%
Nc1ncnc2c1ncn2[C@@H]1O[C@H](COP(=O)(O)O)[C@@H](O)[C@H]1O	HIV	-	IC50	RNase H	-	-	-	>10 µM
Cc1cn([C@H]2C=C[C@@H](COP(=O)(O)OP(=O)(O)OP(=O)(O)O)O2)c(=O)[nH]c1=O	HIV	RT-N137E	IC50	Reverse transcriptase	-	nucleotide incorporation / radiometric	-	0.04 µM
O=C(/C=C/c1ccc(O)c(O)c1)O[C@@H]1C[C@](OC(=O)/C=C/c2ccc(O)c(O)c2)(C(=O)O)C[C@@H](O)[C@H]1O	HIV-1	-	IC50	RNase H	-	-	-	>>97 µM
NC[C@H]1O[C@H](O[C@H]2[C@H](O)[C@@H](O[C@H]3O[C@H](CO)[C@@H](O)[C@H](N)[C@H]3O)[C@H](N)C[C@@H]2N)[C@H](N)[C@@H](O)[C@@H]1O	HIV-1	-	IC50	Rev:RRE	-	gel	-	<100 µM
O=C1c2c(O)cc(O[C@@H]3C[C@@H](O)[C@H](O)[C@@H](CO)O3)cc2O[C@H](c2ccc(O)cc2)[C@H]1O	HIV-1	-	inhibition	gp120	-	ELISA	80 µg/mL	>80%
CCCCCCC[C@H](O)C[C@@H]1CC[C@H]2C(C(=O)O[C@H](C)CCCCCCC[C@@H]3C[C@@H]4CC[C@@H]5C[C@H](C)NC(=[N+]54)N3)=C(C)NC(N)=[N+]12	HIV-1	-	inhibition	Nef	NL4-3	ELISA	5 µM	86.8%
O=C1CC(c2ccccc2)Oc2cc(OC3O[C@H](CO)[C@@H](O)[C@H](O)[C@H]3O)ccc21	HIV-1	-	IC50	RNase H	-	fluorescence	-	33 µM
Cc1cccc(C)c1OCC(=O)N[C@@H](Cc1ccccc1)[C@H](O)CN1CC[C@@H](Sc2ccncc2)C[C@H]1C(=O)NC(C)(C)C	HIV-2	-	IC50	Protease	-	-	-	≤0.0023 µM
Nc1nc2c(ncn2[C@H]2CC[C@@H](COP(=O)(O)OP(=O)(O)OP(=O)(O)O)O2)c(=O)[nH]1	HIV	RT-Y181C	IC50	Reverse transcriptase	-	nucleotide incorporation	-	0.03 µM
NC[C@@H]1O[C@H](O[C@H]2[C@@H](O)[C@H](O[C@@H]3[C@@H](O)[C@H](N)C[C@H](N)[C@H]3O[C@H]3O[C@H](CN)[C@@H](O)[C@H](O)[C@H]3N)O[C@@H]2CO)[C@H](N)[C@@H](O)[C@@H]1O	HIV-1	-	inhibition	Rev:RRE	-	gel	1 µM	100%
CC(C)c1nc(C(=O)NCc2ccc(F)cc2)c(O)c(=O)n1C	HIV-1	-	IC50	RNase H	-	substrate cleavage	-	11.9 µM
Cc1cccc(C)c1OCC(=O)N[C@H](CCN1CC[C@@H](OCc2cccnc2)C[C@H]1C(=O)NC(C)(C)C)Cc1ccccc1	HIV-2	-	IC50	Protease	-	-	-	0.013 µM
COC(=O)C(=O)OC1(C(=O)O)C[C@@H](OC(=O)/C=C/c2ccc(O)c(O)c2)C(O)[C@H](OC(=O)/C=C/c2ccc(O)c(O)c2)C1	HIV-1	-	IC50	RNase H	-	-	-	>83 µM
NC[C@H]1O[C@H](O[C@H]2[C@H](O)[C@@H](O[C@H]3O[C@H](CO)[C@@H](O)[C@H](N)[C@H]3O)[C@H](N)C[C@@H]2N)[C@H](N)C[C@@H]1O	HIV-1	-	IC50	Rev:RRE	-	gel	-	<10 µM
O=C1N(Cc2ccc(CO)cc2)[C@H](COc2ccccc2)[C@H](O)[C@@H](O)[C@@H](COc2ccccc2)N1Cc1ccc(CO)cc1	HIV	PR-I84V L90M	Ki	Protease	-	fluorescence	-	0.00021 µM
CC(C)Nc1cccnc1N1CCN(C(=O)c2cc3ccccc3[nH]2)CC1	HIV	RT-Y181C	fold resistance	Reverse transcriptase	-	nucleotide incorporation	-	38.1
CCC(Cc1ccccc1)c1cc(O)c(C(CC)c2ccccc2)c(=O)o1	HIV-2	-	Ki	Protease	-	-	-	0.032 µM
Cc1cn([C@@H]2O[C@H](CO[Si](C)(C)C(C)(C)C)[C@@]3(OS(=O)(=O)C=C3N)[C@H]2O[Si](C)(C)C(C)(C)C)c(=O)[nH]c1=O	HIV	RT-P140A	IC50	Reverse transcriptase	-	nucleotide incorporation / radiometric	-	1.07 µM
Cc1cn([C@@H]2O[C@H](CO[Si](C)(C)C(C)(C)C)C3(OS(=O)(=O)C=C3N)[C@H]2O[Si](C)(C)C(C)(C)C)c(=O)n(C)c1=O	HIV	RT-Y181C	fold resistance	Reverse transcriptase	-	nucleotide incorporation	-	>183
Oc1cc(O)c2c(c1)O[C@H](c1ccc(O)c(O)c1)[C@@H](O)C2	HIV-1	-	inhibition	gp120	IIIB	ELISA	5 µg/mL	24%
C=CCOC(=O)C1=C(CCCCC[C@@H](C)O[Si](C)(C)C(C)(C)C)NC2=[N+]3[C@H](CC[C@@H]13)C[C@H](C)N2	HIV-1	-	inhibition	Nef	NL4-3	ELISA	5 µM	102.2%
O=C(O[C@@H]1Cc2c(O)cc(O)cc2O[C@@H]1c1cc(O)c(O)c(O)c1)c1cc(O)c(O)c(O)c1	HIV-1	-	inhibition	gp120	-	fluorescence	50 µM	34.4%
NC(N)=NCCC[C@H](N)C(=O)NC[C@@H]1OC(O[C@H]2[C@@H](O)[C@H](O[C@@H]3[C@@H](O)[C@H](NC(=O)[C@@H](N)CCCN=C(N)N)C[C@H](NC(=O)[C@@H](N)CCCN=C(N)N)[C@H]3O[C@H]3O[C@H](CNC(=O)[C@@H](N)CCCN=C(N)N)[C@@H](O)[C@H](O)[C@H]3NC(=O)[C@@H](N)CCCN=C(N)N)O[C@@H]2CO)[C@H](NC(=O)[C@@H](N)CCCN=C(N)N)[C@@H](O)[C@@H]1O	HIV-1	-	IC50	Tat:TAR/LTR	-	-	-	>110 µM
O=C1CC(c2ccccc2)Oc2ccccc21	HIV-1	-	IC50	RNase H	-	fluorescence	-	21 µM
C=CCOC(=O)C1=C(C)NC(N)=[N+]2[C@H](C[C@@H](O)CCCCCCOCc3ccccc3)CC[C@H]12	HIV-1	-	inhibition	Nef	NL4-3	ELISA	5 µM	101.1%
O=C1CSC(c2c(Cl)ncnc2Cl)N1c1nccs1	HIV-1	-	inhibition	Reverse transcriptase	-	RT activity / ELISA / absorbance	100 µg/mL	42.16%